Reference: article PMC5459902 (Scientific Reports, 2017)

Tested on: CC(C)[C@H](NC[C@@]1(O)OC[C@@H](O)[C@@H](O)[C@@H]1O)C(=O)O
Assay: purified protein
Conditions: oxidase activity, O2 as electron acceptor, 10 mM potassium phosphate pH 7.0, 298 K, 25.0 °C

## PnFPOX (Parastagonospora nodorum SN15; N56A)
  Km: 109 ± 6.2 µM
  Vmax: 5.47 µmol/min/mg
  Vmax/Km: 50200 µL/min/mg
